Results of unrelated studies side by side (data: NIAID ChemDB).

Common to all: growth or infection tests; organism: Aspergillus niger; measure: zone

Zone: diameter of growth inhibition.

| SMILES | read by | strain or isolate | dose | result |
|---|---|---|---|---|
| CCOC(=O)Cn1c(C(F)(F)F)nc2ccc(C(=O)c3ccccc3)cc21 | - | MTCC 1344 | 500 µg/mL | 700 mm |
| COc1cc2c(c(O)c1C)C(=O)c1c(ccc(OC)c1O)C2=O | agar diffusion | - | 13.3 µg/disc | <6.2 mm |
| COc1ccc(N2C(=O)N(c3ccc(F)cc3)C(=N)C2=S)cc1 | agar diffusion / agar | - | 5 mg/mL | 14 mm |
| O=C(O[C@H]1Cc2c(O)cc(O)cc2O[C@@H]1c1cc(O)c(O)c(O)c1)c1cc(O)c(O)c(O)c1 | agar diffusion / agar | ATCC64958 | 100 µg/disc | 10 mm |
| O=C(CNc1ccc(Cl)cc1)COc1ccc(-c2nc(-c3ccccc3)c(-c3ccccc3)s2)cc1 | agar diffusion / agar | ATCC 16404 | 100 µg/mL | 24 mm |
| CCn1c(C(F)(F)F)nc2cc([N+](=O)[O-])ccc21 | - | MTCC 1344 | 500 µg/mL | 750 mm |
| CC1(C)CC(=O)C2=C(C1)OC1=C(C(=O)CC(C)(C)C1)C2c1ccc(C2C3=C(CC(C)(C)CC3=O)OC3=C2C(=O)CC(C)(C)C3)cc1 | agar diffusion | ATCC 10949 | 140 µg/disc | 0 mm |
| N#C/C(=C\c1ccc(Br)cc1)c1ccc([N+](=O)[O-])cc1 | agar diffusion | - | 100 µg | 0 mm |
| Clc1ccc(Nc2ccc(-c3nc(-c4ccccc4)c(-c4ccccc4)s3)cc2)cc1 | agar diffusion / agar | ATCC 16404 | 100 µg/mL | 22 mm |
| CC(=NNC(=O)c1snnc1C(F)(F)F)c1ccc(Br)cc1Br | agar diffusion / agar | MTCC 1344 | 100 µg/mL | 0 mm |
| N=C1C(=S)N(c2ccccc2)C(=O)N1c1ccc(F)cc1 | agar diffusion / agar | - | 5 mg/mL | 12 mm |
| N#C/C(=C\c1ccc([N+](=O)[O-])cc1)c1ccccc1 | agar diffusion | - | 100 µg | 0 mm |
| N=C1C(=S)N(c2ccc(F)cc2)C(=O)N1c1ccc(Cl)c(C(F)(F)F)c1 | agar diffusion / agar | - | 5 mg/mL | 16.5 mm |
| Cc1ccc(S(=O)(=O)CNc2oc3[nH]c(=O)[nH]c(=O)c3c2-c2ccsc2C=O)cc1 | agar diffusion / agar | - | 50 µg/mL | 0 mm |
| N=C1O/C(=C/c2ccc(Cl)cc2)C(=O)N1CCCNc1ccnc2cc(Cl)ccc12 | agar diffusion | - | 400 µg/mL | 38 mm |
| N=C1C(=S)N(c2ccc(I)cc2)C(=O)N1c1ccc(Cl)c(C(F)(F)F)c1 | agar diffusion / agar | - | 5 mg/mL | 0 mm |
| CCOC(=O)Cn1c(C(F)(F)C(F)(F)F)nc2cc([N+](=O)[O-])ccc21 | - | MTCC 1344 | 500 µg/mL | 850 mm |
| O=C(NN=Cc1ccc(Cl)cc1)c1snnc1C(F)(F)F | agar diffusion / agar | MTCC 1344 | 150 µg/mL | 0 mm |
| COc1ccc(C2CC(=O)C3=C(C2)OC2=C(C(=O)CC(c4ccc(OC)c(OC)c4)C2)C3c2cccc(C3C4=C(CC(c5ccc(OC)c(OC)c5)CC4=O)OC4=C3C(=O)CC(c3ccc(OC)c(OC)c3)C4)c2)cc1OC | agar diffusion | ATCC 10949 | 40 µg/disc | 0 mm |
| Cc1ccc2c(c1)C(C=NNC(=O)N1c3ccccc3C=Cc3ccccc31)C(c1ccccc1)=N2 | agar diffusion | MTCC 281 | 500 µg/mL | 12 mm |
| O=C(COc1ccc(-c2nc(-c3ccccc3)c(-c3ccccc3)s2)cc1)CN1CCCCC1 | agar diffusion / agar | ATCC 16404 | 100 µg/mL | 18 mm |
| Cc1ccc(-c2c(NCS(=O)(=O)c3ccc(C)cc3)oc3[nH]c(=O)[nH]c(=O)c23)cc1 | agar diffusion / agar | - | 50 µg/mL | 0 mm |
| NC(=S)c1ccc(OC(=O)CNc2nncs2)cc1 | agar diffusion / agar | ATCC 16404 | 100 µg/mL | 24 mm |
| CC1OC2=C(C(=O)c3ccccc3C2=O)C1(C)C | agar diffusion / agar | ATCC64958 | 100 µg/disc | 42 mm |
| C[C@H]1[C@H](O)[C@@H](C)/C=C/C=C/C=C/C=C/C=C/C=C/C=C/[C@H](O[C@@H]2O[C@H](C)[C@@H](O)[C@H](N)[C@@H]2O)C[C@@H]2O[C@](O)(C[C@@H](O)C[C@@H](O)CC[C@H](O)[C@@H](O)C[C@@H](O)CC(=O)O[C@H]1C)C[C@H](O)[C@H]2C(=O)O | agar diffusion / agar | MTCC 282 | 50 µg/mL | 25 mm |
| COc1ccc(C2CC(=O)C3=C(C2)OC2=C(C(=O)CC(c4ccc(OC)c(OC)c4)C2)C3c2ccc(C3C4=C(CC(c5ccc(OC)c(OC)c5)CC4=O)OC4=C3C(=O)CC(c3ccc(OC)c(OC)c3)C4)cc2)cc1OC | agar diffusion | ATCC 10949 | 20 µg/mL | 0 mm |
| COc1ccc(/C=C2/OC3(COC(=O)N3)N(CCCNc3ccnc4cc(Cl)ccc34)C2=O)cc1 | agar diffusion | - | 200 µg/mL | 14 mm |
| O=[N+]([O-])c1ccc2nc(C(F)(F)C(F)(F)F)n(CCCCCl)c2c1 | - | MTCC 1344 | 500 µg/mL | 700 mm |
| COc1ccc(/C=C(\C#N)c2ccccc2)cc1 | agar diffusion | - | 100 µg | 0 mm |
| O=C(NN1C(=O)CSC1C1C(c2ccccc2)=Nc2ccc(Cl)cc21)N1c2ccccc2C=Cc2ccccc21 | agar diffusion | MTCC 281 | 750 µg/mL | 13 mm |
| COc1ccc(/C=C(\C#N)c2ccc([N+](=O)[O-])cc2)cc1 | agar diffusion | - | 100 µg | 0 mm |
| Cc1cc(=O)oc2c(C=Nc3cccc4cccc(N=Cc5c(O)ccc6c(C)cc(=O)oc56)c34)c(O)ccc12 | - | MTCC 1881 | 100 µg/mL | 8 mm |
| O=C(CNc1nncs1)COc1ccc(-c2nc(-c3ccccc3)c(-c3ccccc3)s2)cc1 | agar diffusion / agar | ATCC 16404 | 100 µg/mL | 20 mm |
| N#C/C(=C\c1ccc([N+](=O)[O-])cc1)c1ccc([N+](=O)[O-])cc1 | agar diffusion | - | 100 µg | 0 mm |
| Cc1ccc(S(=O)(=O)CNc2oc3[nH]c(=O)[nH]c(=O)c3c2-c2ccc(Cl)cc2)cc1 | agar diffusion / agar | - | 50 µg/mL | 2 mm |
| O=[N+]([O-])c1ccc2nc(C(F)(F)F)n(CCCCl)c2c1 | - | MTCC 1344 | 500 µg/mL | 350 mm |
| O=C(NN=CC1C(c2ccccc2)=Nc2ccc(Cl)cc21)N1c2ccccc2C=Cc2ccccc21 | agar diffusion | MTCC 281 | 1000 µg/mL | 13 mm |
| OC(Cn1cncn1)(Cn1cncn1)c1ccc(F)cc1F | - | - | 100 µg/mL | 100 mm |
| O=C1CC(c2ccccc2)CC2=C1C(c1cccc(C3C4=C(CC(c5ccccc5)CC4=O)OC4=C3C(=O)CC(c3ccccc3)C4)c1)C1=C(CC(c3ccccc3)CC1=O)O2 | agar diffusion | ATCC 10949 | 140 µg/disc | 0 mm |
| Cc1c(O)cc2c(c1O)C(=O)c1ccccc1C2=O | agar diffusion | - | 13.3 µg/disc | 0 mm |
| CN(C)c1ccc(C=NNC(=O)c2snnc2C(F)(F)F)cc1 | agar diffusion / agar | MTCC 1344 | 100 µg/mL | 0 mm |
| NCCCNc1ccnc2cc(Cl)ccc12 | agar diffusion | - | 400 µg/mL | 53 mm |
| O=C(Cc1ccc(-c2nc(-c3ccccc3)c(-c3ccccc3)s2)cc1)CN1CCOCC1 | agar diffusion / agar | ATCC 16404 | 100 µg/mL | 18 mm |
| N#C/C(=C\c1ccccc1Cl)c1ccc([N+](=O)[O-])cc1 | agar diffusion | - | 100 µg | 0 mm |
| CCCCOCc1c(O)cc2c(c1O)C(=O)c1ccccc1C2=O | agar diffusion | - | 13.3 µg/disc | 0 mm |
| CCOC(=O)Cn1c(C(F)(F)F)nc2cc([N+](=O)[O-])ccc21 | - | MTCC 1344 | 500 µg/mL | 550 mm |
| O=C(CNc1nncs1)Cc1ccc(-c2nc(-c3ccccc3)c(-c3ccccc3)s2)cc1 | agar diffusion / agar | ATCC 16404 | 100 µg/mL | 25 mm |
| CC1OC2=C(C(=O)c3ccccc3C2=O)C1(C)C.O=C(O)c1cc(O)c(O)c(O)c1 | agar diffusion / agar | ATCC64958 | 100 µg/disc | 39.8 mm |
| Cc1n[nH]c(=S)n1N=C/C=C/c1c(-c2ccc(F)cc2)c2ccccc2n1C(C)C | - | - | 100 µg/mL | 12 mm |
| N#C/C(=C\c1ccccc1Cl)c1ccccc1 | agar diffusion | - | 100 µg | 0 mm |
| CC1(C)CCC2=C(C1=O)C(c1ccc(C3C4=C(CCC(C)(C)C4=O)OC4=C3C(=O)C(C)(C)CC4)cc1)C1=C(CCC(C)(C)C1=O)O2 | agar diffusion | ATCC 10949 | 20 µg/mL | 0 mm |
| O=C(NN=Cc1ccc(F)cc1)c1snnc1C(F)(F)F | agar diffusion / agar | MTCC 1344 | 150 µg/mL | 0 mm |
| Cc1ccc(N2C(=O)N(c3ccc(F)cc3)C(=N)C2=S)cc1 | agar diffusion / agar | - | 5 mg/mL | 13 mm |

For reference, 3 entries again:

{"SMILES": "CC1(C)CCC2=C(C1=O)C(c1ccc(C3C4=C(CCC(C)(C)C4=O)OC4=C3C(=O)C(C)(C)CC4)cc1)C1=C(CCC(C)(C)C1=O)O2", "read by": "agar diffusion", "strain or isolate": "ATCC 10949", "dose": "20 µg/mL", "result": "0 mm"}
{"SMILES": "CC1OC2=C(C(=O)c3ccccc3C2=O)C1(C)C.O=C(O)c1cc(O)c(O)c(O)c1", "read by": "agar diffusion / agar", "strain or isolate": "ATCC64958", "dose": "100 µg/disc", "result": "39.8 mm"}
{"SMILES": "O=[N+]([O-])c1ccc2nc(C(F)(F)C(F)(F)F)n(CCCCCl)c2c1", "strain or isolate": "MTCC 1344", "dose": "500 µg/mL", "result": "700 mm"}

Blank or dashed fields: not listed here. Neighbouring rows are from separate reports.